Data reported in patent publication US20040197862A1.

Target: HLA-DR2b (DRA, DRB1*1501), soluble, thrombin-cleaved DR/CLIP complex (human)

HIV p24 (121-142) peptide
IC50: 11 µM
